Substrate in this data set: Nc1ncnc2c1ncn2[C@H]1C=C(F)[C@@H](CO)O1
In words: Menten constant against adenosine deaminase (ADA). A digest of the protocol:
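Deamination by calf intestinal mucosa adenosine deaminase (0.15 units, MW 33 000, in 2 mL) in phosphate buffer pH 7.4 at 25 °C, substrate 15–100 μM, monitored by UV at 265 nm. Initial rates from graphical fitting of concentration vs time; Vmax and KM from Lineweaver–Burk plot, kcat calculated from enzyme amount.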

For orientation: Km means the concentration of substrate that gives half-maximal velocity.

B1: Adenosine deaminase (Bos taurus), P56658 (protein)
chain: MAQTPAFNKPKVELHVHLDGAIKPETILYYGRKRGIALPADTPEELQNIIGMDKPLSLPEFLAKFDYYMPAIAGCREAVKRIAYEFVEMKAKDGVVYVEVRYSPHLLANSKVEPIPWNQAEGDLTPDEVVSLVNQGLQEGERDFGVKVRSILCCMRHQPSWSSEVVELCKKYREQTVVAIDLAGDETIEGSSLFPGHVKAYAEAVKSGVHRTVHAGEVGSANVVKEAVDTLKTERLGHGYHTLEDATLYNRLRQENMHFEVCPWSSYLTGAWKPDTEHPVVRFKNDQVNYSLNTDDPLIFKSTLDTDYQMTKNEMGFTEEEFKRLNINAAKSSFLPEDEKKELLDLLYKAYGMPSPASAEQCL
For the protein B1, the Michaelis-Menten constant (Km) is 8.8 µM.
